A mixed list of measured activities; the numbers were collected in NIAID ChemDB.

All rows: whole-cell or culture tests; agent: Mycobacterium tuberculosis

MIC50, MIC90 and the like: level of inhibition, or share of isolates inhibited. Percent inhibition refers to the dose given; in toxicity tests it is the harm to the cells. Blank or dashed fields: not listed here. ECn: concentration that inhibits the pathogen or its effect by n%. Lines come from different laboratories, so protocols vary. MIC bound: limit read from a one-dose screen.

smiles	strain	tested at	read-out	read by	cell line	mutations	result
CCCCCCCCCCCCSCCCO[C@@H]1OC(COC(C)=O)[C@H](OC(C)=O)[C@H](O[C@@H]2OC(C)[C@H](OC(C)=O)[C@H](OC(C)=O)C2OC(C)=O)C1NC(C)=O	H37Rv		MIC	agar			>12.5 µg/mL
Cc1nc(-n2nc(-c3ccccc3)cc2-c2ccccc2)sc1C(=O)CC(=O)C(=O)Nc1ccc(O)cc1	H37Rv		MIC bound	resazurin			>6.25 µg/mL
Clc1nc(Sc2ccncc2)c2[nH]cnc2n1	H37Rv		MIC90				>6.25 µg/mL
COc1ncnc(Cn2cnc3c(C(=O)NCC(F)(F)F)cc(C)cc32)c1C	H37Rv		MIC80	visual reading / absorbance			<1.27 µM
O=C1c2ccccc2C(=O)c2c1oc1cc(O)c(Cl)cc21	H37Rv		MIC	resazurin	VERO		6.25 µg/mL
COc1cc2c(cc1OC)C1=NN(C(=O)Nc3ccc(F)c(Cl)c3)C(c3ccc(F)cc3)C1C2	INH resistant		EC50	agar			12.5 µM
NC(=O)c1cnccn1	Erdman		MIC				32 µg/mL
CC(=O)NC1[C@H](OCCCSC23CC4CC(CC(C4)C2)C3)OC(COC(C)=O)[C@H](OC(C)=O)[C@@H]1O[C@@H]1OC(C)[C@H](OC(C)=O)[C@H](OC(C)=O)C1OC(C)=O	H37Rv		MIC	agar			12.5 µg/mL
Cc1cc(N(CCC#N)CCC#N)ccc1/C=C1\N=C(c2ccccc2)N(N)C1=O	H37Rv		MIC bound	BACTEC			>12.5 µg/mL
COc1cccc(Sc2ccncc2)c1	H37Ra		MIC				>12.8 µg/mL
Oc1cc(Cl)cc(Cl)c1C(=S)NCc1ccc(Cl)c(Cl)c1	My 331/88		MIC				16 µg/mL
N#Cc1c(N)[n+]([O-])c2ccc(Cl)cc2[n+]1[O-]	H37Rv	6.25 µg/mL	inhibition				100%
CCCCCCC#Cc1cncc(-c2nnc(SCc3cc([N+](=O)[O-])cc([N+](=O)[O-])c3)n2C)c1	Erdman		EC50	resazurin			0.34 µM
O=C(N/N=C/c1ccncc1)c1ccncc1	H37Rv		MIC bound	BACTEC			≤128 µg/mL
CC(=O)NC[C@H]1CN(c2ccc(N3CCOCC3)c(F)c2)C(=O)O1	linezolid resistant 8.7		MIC			T460C Cys154Arg	32 µg/mL
Cc1ccc2c(O)c(Cc3ccccc3)c(=O)[nH]c2n1	H37Rv		EC50	BACTEC			>6.25 µg/mL
CCCCNCc1ccccc1O	H37Rv		MIC				125 µg/mL
CO[C@H]1/C=C/O[C@@]2(C)Oc3c(C)c(O)c4c(O)c(c5c(c4c3C2=O)NC2(CCN(CC(C)C)CC2)N=5)=NC(=O)/C(C)=C\C=C\[C@H](C)[C@H](O)[C@@H](C)[C@@H](O)[C@@H](C)[C@H](OC(C)=O)[C@@H]1C	Isolate 880902 rifampicin-resistant		MIC				16 µg/mL
Cc1ccc(/C=N/N=C(\N)c2ccncc2)cc1	Isolate 1751 ofloxacin-resistant		MIC				16 µg/mL
CN[C@@H]1[C@H](O[C@H]2[C@H](O[C@H]3[C@H](O)[C@@H](O)[C@H](N=C(N)N)[C@@H](O)[C@@H]3N=C(N)N)O[C@@H](C)[C@]2(O)C=O)O[C@@H](CO)[C@H](O)[C@H]1O	H37Rv		MIC90	resazurin / fluorescence		Rifampicin-resistant	0.27 µg/mL
CCCCOc1ccc(NC(=S)Nc2ccc(OCCN(CC)CC)cc2)cc1	H37RV #164		MIC				16.6 µg/mL
CO[C@H]1/C=C/O[C@@]2(C)Oc3c(C)c(O)c4c(O)c(c5c(c4c3C2=O)NC2(CCN(CC(C)C)CC2)N=5)=NC(=O)/C(C)=C\C=C\[C@H](C)[C@H](O)[C@@H](C)[C@@H](O)[C@@H](C)[C@H](OC(C)=O)[C@@H]1C	Erdman		MIC				0.015 µg/mL
Cc1ccccc1Sc1ncccn1	H37Ra		MIC				>12.8 µg/mL
Cn1nc(/C=C\c2ccccc2)nc2c(=O)n(C)c(=O)nc1-2	H37Rv	12.5 µg/mL	inhibition	BACTEC			91%
c1cc2c(N3CCCCC3)cc(N3CCOCC3)nc2nc1N1CCOCC1	H37Rv	6.25 µg/mL	inhibition	BACTEC			11%
O=C(NCc1ccc(C(F)(F)F)cc1)c1c(O)cc(Br)cc1Br	My 331/88		MIC				62.5 µg/mL
CCc1nc2ccc(Cl)cn2c1C(=O)NCc1ccc(N2CCC(c3ccc(OC(F)(F)F)cc3)CC2)cc1	N0145		MIC50	turbidity			0.0028 µM
O=S(=O)(/N=C1C=C/C(=N\S(=O)(=O)c2ccccc2)C2C\1C2(c1ccccc1)c1ccccc1)c1ccccc1	H37Rv	12.5 µg/mL	inhibition	BACTEC			30%
CC1(C)CC[C@]2(C(=O)O)CC[C@]3(C)C(CC[C@@H]4[C@@]5(C)C[C@H](O)CC(C)(C)[C@@H]5CC[C@]43C)[C@@H]2C1	STR-R (ATCC 35820)		MIC	resazurin			50 µg/mL
COc1ccccc1CSc1ccncc1	H37Rv	6.25 µg/mL	inhibition				0%
Oc1ccccc1C(=S)NCc1ccccc1	My 331/88		MIC				0.5 µg/mL
Clc1ccc2c(N3CCOCC3)cc(N3CCOCC3)nc2n1	H37Rv		EC50	BACTEC			>6.25 µg/mL
O=C1CCCCCCCCCCCCCCCO1	INH-r		MIC				>12.8 µg/mL
Cc1cc2c(cc1C)[n+]([O-])c(C#N)c(N)[n+]2[O-]	H37Rv		EC50				<6.25 µg/mL
c1ccc(CSc2ccccn2)cc1	H37Rv	6.25 µg/mL	inhibition				0%
CCCCCc1cc(=O)[nH]c2c1C(=O)c1c(CCCCC)cc(=O)[nH]c1C2=O	H37Rv		MIC90	resazurin / fluorescence			0.04 µg/mL
CC1COc2c(N3CCN(C)CC3)c(F)cc3c(=O)c(C(=O)O)cn1c23	INH resistant 912253		MIC	broth dilution			0.5 µg/mL
CC(=O)NC[C@H]1CN(c2ccc(N3CCOCC3)c(F)c2)C(=O)O1	H37Rv		MIC	agar			0.25 µg/mL
NCc1ccccc1	H37Rv		MIC				250 µg/mL
N/C(=N\N=C\c1ccccc1)c1ccncc1	H37Rv		MIC				16 µg/mL
Cc1ccc(NC(=S)NC(=O)C(C)Oc2ccccc2)cc1Cl	H37Rv		MIC				>12.5 µg/mL
CO[C@H]1/C=C/O[C@@]2(C)Oc3c(C)c(O)c4c(O)c(cc(O)c4c3C2=O)NC(=O)/C(C)=C\C=C\[C@H](C)[C@H](O)[C@@H](C)[C@@H](O)[C@@H](C)[C@H](OC(C)=O)[C@@H]1C	H37Ra		MIC				0.05 µg/mL
N#Cc1nc2ccccc2nc1Cl	H37Rv	6.25 µg/mL	inhibition				94%
CO[C@H]1/C=C/O[C@@]2(C)Oc3c(C)c(O)c4c(=O)c(c5oc6cc(N7CCN(CC(C)C)CC7)cc(=O)c6nc5c4c3=C2O)NC(=O)/C(C)=C\C=C\[C@H](C)[C@H](O)[C@@H](C)[C@@H](O)[C@@H](C)[C@H](OC(C)=O)[C@@H]1C	Erdman		MIC				0.008 µg/mL
N#Cc1c(N2CCN(c3ccc([N+](=O)[O-])cc3)CC2)[n+](=O)c2ccccc2n1[O-]	H37Rv		MIC				>0.1 µg/mL
N/C(=N\N=C\c1ccc(Br)cc1)c1ccncc1	H37Rv		MIC				8 µg/mL
CCCCCCCC[N+]1([O-])CC[N+](C)([O-])CC1	H37Rv	12.5 µg/mL	inhibition	BACTEC			0%
CCCCCCC#Cc1cncc(-c2nnc(SCc3cc([N+](=O)[O-])cc([N+](=O)[O-])c3)n2C2CC2)c1			EC50	resazurin			1.1 µM
C[C@@H]1CN(C(=S)Nc2ccccc2)[C@@H](C)CN1C=O	H37Rv	12.5 µg/mL	inhibition	BACTEC			10%
Nc1ccc2c(Cl)cc(N3CCCCC3)nc2n1	H37Rv	6.25 µg/mL	inhibition	BACTEC			38%
O=C1N[C@H](CO)C(=O)N[C@H]1CO	H37Rv	12.5 µg/mL	inhibition	BACTEC			-4%
CNC(=O)c1c(-c2ccc(F)cc2)oc2cc(O)cc(CCN[C@@H](Cc3cnc[nH]3)C(=O)O)c12	mc(^2)7000		MIC	resazurin / fluorescence			5 µM
CC12CCC(O)CC1CCC1C2CCC2(C)C(c3ccc(=O)oc3)CC3OC312	H37Rv		MIC bound	BACTEC			>12.8 µg/mL
COc1cc2c(cc1Cl)[n+]([O-])c(C#N)c(N)[n+]2[O-]	H37Rv		MIC				3.13 µg/mL
c1ccc(CSc2ncccn2)cc1	H37Rv	6.25 µg/mL	inhibition				0%
CCOC(=O)c1c(-c2ccccc2)oc2ccc(O)c(CN3CCC(N4CCCCC4)CC3)c12	mc(^2)7000		MIC40	resazurin / fluorescence			20 µM
CCCc1c2c([nH]c(=O)c1C)C(=O)c1[nH]c(=O)c(C)c(CCC)c1C2=O	H37Rv		MIC90	resazurin / fluorescence		Kanamycin-resistant	0.06 µg/mL
OC(c1cc(-c2ccc(C(F)(F)F)cc2)nc(C(F)(F)F)c1)C1CCCCN1	H37Rv		MIC bound	resazurin			<6.25 µg/mL
CC(=O)NC1[C@H](OCCCSC2CCCC2)OC(COC(C)=O)[C@H](OC(C)=O)[C@@H]1O[C@@H]1OC(C)[C@H](OC(C)=O)[C@H](OC(C)=O)C1OC(C)=O	H37Rv		MIC	agar			6.25 µg/mL
Nc1ccc2c(N3CCOCC3)cc(N3CCOCC3)nc2n1	H37Rv	6.25 µg/mL	inhibition	BACTEC			0%
CCCN(C)C(=O)c1c(-c2ccccc2)oc2ccc(O)c(CCCN3CCC3)c12	mc(^2)7000		MIC	resazurin / fluorescence			0.33 µM
CCN(CC)N=Nc1c(C(N)=O)n[nH]c1C	H37Rv		MIC bound	BACTEC			>12.5 µg/mL
N#Cc1nc2cc(Cl)ccc2nc1Cl	H37Rv		EC50				<12.5 µg/mL
COc1cc2c(cc1Cl)n([O-])c(C#N)c(N1CCN(c3ccc([N+](=O)[O-])cc3)CC1)[n+]2=O	H37Rv		EC50				<6.25 µg/mL
C[C@H]1COc2c(N3CCN(C)CC3)c(F)cc3c(=O)c(C(=O)O)cn1c23	Erdman		MIC				2 µg/mL
CCCCCCC#Cc1cncc(-c2nnc(SCc3ccc([N+](=O)[O-])cc3[N+](=O)[O-])n2C)c1			EC50	resazurin			1.4 µM
Cc1cc2nc(Cl)c(C#N)nc2cc1C	H37Rv		EC50				>6.25 µg/mL
CCCCNCc1cccc(OC)c1	H37Rv		MIC				250 µg/mL
Nc1ccc2c(N3CCCCC3)cc(N3CCOCC3)nc2n1	H37Rv		EC50	BACTEC			>6.25 µg/mL
CCOc1ccc(NC(=S)Nc2ccc(OCC(C)C)cc2)cc1	H37RV #164		MIC				2 µg/mL
CC(C)(C)C1=CC(=CC=C2C=CN(CCCCCCCCCCCO)C=C2)C=C(C(C)(C)C)C1=O	H37Rv		MIC bound	BACTEC			≤12.5 µg/mL
COc1ccc2c(c1)n([O-])c(C#N)c(N1CCN(c3ccc([N+](=O)[O-])cc3)CC1)[n+]2=O	H37Rv	6.25 µg/mL	inhibition				100%
CC1CN(/N=C/c2ccc([N+](=O)[O-])o2)C(=O)O1	H37Rv	12.5 µg/mL	inhibition	BACTEC			16%
C[C@@H]1CN(c2c(F)c(N)c3c(=O)c(C(=O)O)cn(C4CC4)c3c2F)C[C@H](C)N1	890902		MIC				0.1 µg/mL
COC(=O)c1cc(-c2ccccc2)c2c(=O)n(-c3ccccc3)[nH]c2n1	H37Rv		MIC	BACTEC			≥12.5 µg/mL
C[C@H]1Oc2nc([N+](=O)[O-])cn2C[C@@H]1OCc1ccc(OC(F)(F)F)cc1	H37Rv-5A1		MIC	absorbance			>100 µM
CC1CCC2(CCCO2)O1	H37Rv	12.5 µg/mL	inhibition	BACTEC			3%
COc1ccc(Sc2nc(Cl)nc3nc[nH]c23)cc1	H37Rv	6.25 µg/mL	inhibition				8%
O=C(CCl)NNC1=Nc2ccc(Cl)cc2SC1	H37Rv		MIC bound	BACTEC			>12.5 µg/mL
NNC(=O)c1ccncc1	STR-resistant (ATCC 35820)		MIC	broth dilution			0.03 µg/mL
C/C(=N\NC(=O)C[N+](C)(C)C)c1sc(-c2cccnc2)nc1C.[Cl-]	H37Rv	12.5 µg/mL	inhibition	BACTEC			8%
CCCCNCc1ccccc1F	H37Rv		MIC				250 µg/mL

Again, the opening 8 rows:

smiles | strain | tested at | read-out | read by | cell line | mutations | result
CCCCCCCCCCCCSCCCO[C@@H]1OC(COC(C)=O)[C@H](OC(C)=O)[C@H](O[C@@H]2OC(C)[C@H](OC(C)=O)[C@H](OC(C)=O)C2OC(C)=O)C1NC(C)=O | H37Rv |  | MIC | agar |  |  | >12.5 µg/mL
Cc1nc(-n2nc(-c3ccccc3)cc2-c2ccccc2)sc1C(=O)CC(=O)C(=O)Nc1ccc(O)cc1 | H37Rv |  | MIC bound | resazurin |  |  | >6.25 µg/mL
Clc1nc(Sc2ccncc2)c2[nH]cnc2n1 | H37Rv |  | MIC90 |  |  |  | >6.25 µg/mL
COc1ncnc(Cn2cnc3c(C(=O)NCC(F)(F)F)cc(C)cc32)c1C | H37Rv |  | MIC80 | visual reading / absorbance |  |  | <1.27 µM
O=C1c2ccccc2C(=O)c2c1oc1cc(O)c(Cl)cc21 | H37Rv |  | MIC | resazurin | VERO |  | 6.25 µg/mL
COc1cc2c(cc1OC)C1=NN(C(=O)Nc3ccc(F)c(Cl)c3)C(c3ccc(F)cc3)C1C2 | INH resistant |  | EC50 | agar |  |  | 12.5 µM
NC(=O)c1cnccn1 | Erdman |  | MIC |  |  |  | 32 µg/mL
CC(=O)NC1[C@H](OCCCSC23CC4CC(CC(C4)C2)C3)OC(COC(C)=O)[C@H](OC(C)=O)[C@@H]1O[C@@H]1OC(C)[C@H](OC(C)=O)[C@H](OC(C)=O)C1OC(C)=O | H37Rv |  | MIC | agar |  |  | 12.5 µg/mL